Pooled drug test results. Numbers come from NIAID ChemDB, via PubChem.

All rows: host cell toxicity; cell line: MT-2; read-out: CC50

CCn is the concentration with n% toxicity to the cells.

compound,value
CSCC[C@H](N)C(=O)N[C@@H](CC(C)C)C(=O)N[C@@H](Cc1ccccc1)C(=O)N[C@H](C(=O)O)C(C)C,1.09 µg/mL
C[Si](C)(CCCSc1nc2cc(Cl)ccc2s1)O[Si](C)(C)CCCSc1nc2cc(Cl)ccc2s1,24 µM
Cc1nc2sc3c(c2c(-c2ccc4ncn(C)c4c2)c1C(OC(C)(C)C)C(=O)O)CCCC3,>20 µM
CC(C)C[C@H](NC(=O)[C@@H](N)CCCCN)C(=O)N[C@@H](Cc1ccccc1)C(=O)N[C@H](C(=O)N[C@@H](Cc1ccccc1)C(=O)N1CCC[C@H]1C(=O)O)C(C)C,>100 µg/mL
C#C[C@@]1(CO)C=C[C@H](n2cc(C)c(=O)[nH]c2=O)O1,>100 µM
C[Si](O)(O[Si](C)(CCCn1cnc2c(N)ncnc21)c1ccccc1)c1ccccc1,100 µM
S=C1NC(=S)C(CSCc2ccccc2)(CSCc2ccccc2)N1,>16 µM
Nc1nc2c(ncn2[C@H]2C=C[C@@H](CO)C2)c(=O)[nH]1,>100 µM
COc1ncc(-c2c(C(OC(C)(C)C)C(=O)O)c(C)nc3sc4c(c23)CCCC4)cn1,>20 µM
O=C(O)CCC1=C(CC(=O)O)c2cc3nc(cc4[nH]c(cc5[nH]c(cc1n2)c(CC(=O)O)c5CCC(=O)O)c(CC(=O)O)c4CCC(=O)O)C(CC(=O)O)=C3CCC(=O)O,35 µg/mL
O=C1NC(=O)C(CSCC2CCCCC2)(CSCC2CCCCC2)N1,>12 µM
CC1=C(CCC(=O)O)c2cc3[nH]c(cc4[nH]c(cc5nc(cc1n2)C(CCC(=O)O)=C5CC(=O)O)c(CCC(=O)O)c4CC(=O)O)c(CCC(=O)O)c3CC(=O)O,22 µg/mL
COc1ccnc(Nc2ccc(C#N)c(Oc3cccc(/C=C/C#N)c3)c2)n1,6.9 µM
Nc1ncn([C@H]2CO[C@@H](CO)O2)c(=O)n1,32 µM
N#C/C=C/c1cc(F)cc(Oc2cc(Nc3nccc(C4CC4)n3)ccc2C#N)c1,0.26 µM
CCCNc1nc(N)nc2c1ncn2[C@H]1C=C[C@@H](CO)C1,>100 µM
C=CC1=C(C)C2=NC1=CC1=NC(=Cc3[n-]c4c(c3C)=C([O-])[C@H](C(=O)OC)C=4C3=NC(=C2)[C@@H](C)[C@@H]3CCC(=O)OC/C=C(\C)CCCC(C)CCCC(C)CCCC(C)C)C(CC)=C1C.[Mg+2],>80 µg/mL
COc1ccnc(Nc2ccc(C#N)c(Oc3cc(C)cc(C)c3)c2)n1,1.3 µM
Cc1ccc(-c2c([C@H](OC(C)(C)C)C(=O)O)c(C)nc3sc4c(c23)CCCC4)c(O)c1,>20 µM
O=C1NC(=O)C(CS)(CSCc2ccccc2)N1,>2 µM
CSc1ccnc(Nc2ccc(C#N)c(Oc3cccc(/C=C/C#N)c3)c2)n1,1.2 µM
CSCC[C@H](NC(=O)[C@@H](O)CS)C(=O)N[C@@H](CC(C)C)C(=O)N[C@@H](Cc1ccccc1)C(=O)N[C@H](C(=O)N[C@@H](Cc1ccccc1)C(=O)N1CCC[C@H]1C(=O)O)C(C)C,75.18 µg/mL
Nc1ncn([C@@H]2CO[C@@H](CO)O2)c(=O)n1,27 µM
CC(C)[C@H](N)C(=O)N[C@@H](Cc1ccccc1)C(=O)N1CCC[C@H]1C(=O)O,>100 µg/mL
COc1nc(N)nc2c1ncn2[C@H]1C=C[C@@H](CO)C1,>100 µM
C=Cc1c(C)c2cc3[nH]c(cc4nc(cc5nc(cc1[nH]2)C(C)=C5CCC(=O)O)C(CCC(=O)O)=C4C)c(C)c3C(C)O,31.9 µg/mL
Cc1nn([C@@H]2CO[C@@H](CO)O2)c(=O)[nH]c1=O,>100 µM
CCOC(C(=O)O)c1c(C)nc2sc3c(c2c1-c1ccccc1CO)CCCC3,>20 µM
CCCOc1nc(N)nc2c1ncn2[C@@H]1C=C[C@H](CO)C1,95.9 µM
Cc1nc2ccc(-c3c(C(OC(C)(C)C)C(=O)O)c(C)nc4sc5c(c34)CCCC5)cc2s1,>20 µM
Nc1nc(=O)n([C@H]2O[C@@H](CO)C=C2F)cc1F,>100 µM
C[Si](C)(CCCNC(=O)c1cc(Cl)ccc1N)O[Si](C)(C)CCCNC(=O)c1cc(Cl)ccc1N,20 µM
CC(C)C[C@H](N)C(=O)N[C@@H](Cc1ccccc1)C(=O)N[C@H](C(=O)O)C(C)C,1.58 µg/mL
CC1=C(CCC(=O)O)c2cc3nc(cc4[nH]c(cc5[nH]c(cc1n2)c(C)c5C(O)CO)c(C)c4C(O)CO)C(C)=C3CCC(=O)O,>80 µg/mL
Nc1ccc(CSCC2(CSCc3ccc(N)cc3)NC(=O)NC2=O)cc1,>16 µM
C=Cc1c(C)c2cc3nc(cc4[nH]c(cc5nc(cc1[nH]2)C(C)=C5CO)c(C)c4CCC(=O)O)C(CCC(=O)O)=C3C,52.8 µg/mL
C[Si](C)(CCCn1cnc2c(N)ncnc21)O[Si](C)(C)CCCn1cnc2c(N)ncnc21,90 µM
Cc1c(-c2c([C@H](OC(C)(C)C)C(=O)O)cnc3ccccc23)cc(F)c2c1CCCO2,88 µM

Repeating the first 4 entries:

compound,value
CSCC[C@H](N)C(=O)N[C@@H](CC(C)C)C(=O)N[C@@H](Cc1ccccc1)C(=O)N[C@H](C(=O)O)C(C)C,1.09 µg/mL
C[Si](C)(CCCSc1nc2cc(Cl)ccc2s1)O[Si](C)(C)CCCSc1nc2cc(Cl)ccc2s1,24 µM
Cc1nc2sc3c(c2c(-c2ccc4ncn(C)c4c2)c1C(OC(C)(C)C)C(=O)O)CCCC3,>20 µM
CC(C)C[C@H](NC(=O)[C@@H](N)CCCCN)C(=O)N[C@@H](Cc1ccccc1)C(=O)N[C@H](C(=O)N[C@@H](Cc1ccccc1)C(=O)N1CCC[C@H]1C(=O)O)C(C)C,>100 µg/mL

Conditions beyond the fields shown may differ between rows.